Reference: PMC9606274, “A dataset comprised of binding interactions for 104,972 antibodies against a SARS-CoV-2 peptide” (Scientific Data, 2022)

T1: SARS-CoV-2 target peptide PDVDLGDISGINAS (HR2 region of the spike protein) (SARS-CoV-2)
T1 chain: PDVDLGDISGINAS

B1: Ab-91 scFv, heavy-light orientation (scFv, V domains shown)
VH: EVQLVESGGGLVQPGRSLRLSCAASGFTFDDYAMHWVRQAPGKGLEWVSGISWNSGSIGYADSVKGRFTISRDNAENSLYLQMNSLRAEDTALYYCAKVGRGGGYFDYWGQGTLVTVSS
VL: QAVLTQPSSLSASPGASVSLTCTLRSGINVGTYRIYWYQQKPGSPPQYLLRYKSDSDKQQGSGVPSRFSGSKDASANAGILLISGLQSEDEADYYCMIWHSSAWVFGGGTKLTVL
notes: also called Ab-91-HL
B2: Ab-14 scFv, heavy-light orientation (scFv, V domains shown)
VH: EVQLVETGGGLVQPGGSLRLSCAASGFTLNSYGISWVRQAPGKGPEWVSVIYSDGRRTFYGDSVKGRFTISRDTSTNTVYLQMNSLRVEDTAVYYCAKGRAAGTFDSWGQGTLVTVSS
VL: DVVMTQSPESLAVSLGERATISCKSSQSVLYESRNKNSVAWYQQKAGQPPKLLIYWASTRESGVPDRFSGSGSGTDFTLTISSLQAEDAAVYYCQQYHRLPLSFGGGTKVEIK
notes: also called Ab-14-HL; seed 14
B3: Ab-14 scFv, light-heavy orientation (scFv, V domains shown)
VH: EVQLVETGGGLVQPGGSLRLSCAASGFTLNSYGISWVRQAPGKGPEWVSVIYSDGRRTFYGDSVKGRFTISRDTSTNTVYLQMNSLRVEDTAVYYCAKGRAAGTFDSWGQGTLVTVSS
VL: DVVMTQSPESLAVSLGERATISCKSSQSVLYESRNKNSVAWYQQKAGQPPKLLIYWASTRESGVPDRFSGSGSGTDFTLTISSLQAEDAAVYYCQQYHRLPLSFGGGTKVEIK
notes: also called Ab-14-LH
B4: Ab-91 scFv, light-heavy orientation (scFv, V domains shown)
VH: EVQLVESGGGLVQPGRSLRLSCAASGFTFDDYAMHWVRQAPGKGLEWVSGISWNSGSIGYADSVKGRFTISRDNAENSLYLQMNSLRAEDTALYYCAKVGRGGGYFDYWGQGTLVTVSS
VL: QAVLTQPSSLSASPGASVSLTCTLRSGINVGTYRIYWYQQKPGSPPQYLLRYKSDSDKQQGSGVPSRFSGSKDASANAGILLISGLQSEDEADYYCMIWHSSAWVFGGGTKLTVL
notes: also called Ab-91-LH; seed 91
B5: Ab-95 scFv, heavy-light orientation (scFv, V domains shown)
VH: EVQLVESGAEVKKPGASVKVSCKASGYTFTSYGISWVRQAPGQGLEWMGWISAYNGNTNYAQKLQGRVTMTTDTSTSTAYMELRSLRSDDTAVYYCARVGRGVIDHWGQGTLVTVSS
VL: SSELTQDPAVSVALGQTVRITCEGDSLRYYYANWYQQKPGQAPILVIYGKNNRPSGIADRFSGSNSGDTSSLIITGAQAEDEADYYCSSRDSSGFQVFFGAGTKLTVL
notes: also called Ab-95-HL; seed 95
B6: Ab-95 scFv, light-heavy orientation (scFv, V domains shown)
VH: EVQLVESGAEVKKPGASVKVSCKASGYTFTSYGISWVRQAPGQGLEWMGWISAYNGNTNYAQKLQGRVTMTTDTSTSTAYMELRSLRSDDTAVYYCARVGRGVIDHWGQGTLVTVSS
VL: SSELTQDPAVSVALGQTVRITCEGDSLRYYYANWYQQKPGQAPILVIYGKNNRPSGIADRFSGSNSGDTSSLIITGAQAEDEADYYCSSRDSSGFQVFFGAGTKLTVL
notes: also called Ab-95-LH

Target: T1, SARS-CoV-2 target peptide …
Experiment: AlphaSeq (yeast mating with sequencing)
Settings: partners not purified

Compared with B1, B2 is lower in Kd: 3.39 nM for the first, < 1 nM for the second. The second binds more tightly here.

B3 and B4 cannot be ordered by Kd: < 1 nM for the first, < 1 nM for the second.

B5 and B6 cannot be ordered by Kd: < 1 nM for the first, < 1 nM for the second.
